Measured values published in ChEMBL document CHEMBL1275377, “Structure-based design, synthesis, and structure-activity relationship studies of HIV-1 protease inhibitors incorporating phenyloxazolidinones” (J Med Chem, 2010).

Experiment: Inhibition of multidrug resistant HIV1 protease L101I, L36P, A71V, G73S, I84V, L90M mutant by FRET
Parameters: species or system Human immunodeficiency virus 1

With `Cc1cccc(C)c1OCC(=O)N[C@@H](Cc1ccccc1)[C@@H](O)C[C@H](Cc1ccccc1)NC(=O)[C@H](C(C)C)N1CCCNC1=O` [LOPINAVIR] the Ki was 0.9 nM.
